Consider one substance from PMC9642902.

Several values for one entry are separate records, joined by “and”; a condition that tells them apart may be missing. Equal values may be shown once. Read-outs that look alike come from different tables or passages of the source.

Experiment [1] addresses potato ATG8-2.2 (potato). Nature of the experiment: ITC. (Isothermal titration calorimetry measures the heat released or taken up as one component is titrated into another.)
For experiment [2], the target named is potato ATG8-2.2 (potato). Description: ITC. The source holds these as a separate data set.

What is called Kd is the constant that tells how readily two partners part at equilibrium. As usually defined, the stoichiometry N is a count of units in the complex or per binding partner. As for PiPexRD54 AIM peptide, the Kd with potato ATG8-2.2 (potato) [1] is 93.8 nM. Moreover, in the experiment with potato ATG8-2.2 (potato) [2], the Kd was 93.9 nM and 116 nM and 35 nM; the stoichiometry N is 1.08 and 1.17 and 1.45.
